Measurements taken from publication PMC8625466 (Viruses, 2021).
Where two headings read alike, the source gives them in different places.

System: FMDV

Structure (SMILES) | SI (selectivity index, CC50/EC50) (post-viral entry) | SI (selectivity index, CC50/EC50) (prophylaxis) | SI (selectivity index, CC50/EC50) (viral entry)
COc1ccc(-c2cc(=O)c3c(O)cc(O)c(-c4cc(-c5cc(=O)c6c(O)cc(O)cc6o5)ccc4OC)c3o2)cc1 [Isoginkgetin] | > 51.8 | > 14.8 | > 49.8
O=c1cc(-c2ccc(O)c(O)c2)oc2cc(O)cc(O)c12 [Luteolin] | > 10 | > 3.87 | > 10.3
